Compound potency records, mixed from different reports. Data source: NIAID ChemDB in PubChem.

All rows: tests in culture; organism: Mycobacterium tuberculosis

Lines come from different laboratories, so protocols vary. MIC bound: limit read from a one-dose screen. Inhibition is in % at the dose shown (toxicity tests: loss of growth or viability). ECn: concentration that inhibits the pathogen or its effect by n%. Blank or dashed fields: not listed here. MIC50, MIC90 and the like: level of inhibition, or share of isolates inhibited.

structure	read by	dose	mutations	read-out	strain or isolate	value
O=C(NNC(=S)Nc1ccc(F)cc1)c1ccncc1	-	-	-	MIC	INH resistant	1.34 µM
CCOC(=O)c1cc(CNc2cc(OC)cc(OC)c2)on1	resazurin	-	-	MIC	H37Rv	31.4 µM
C[C@H]1COc2c(N3CCc4ccccc4C3C(=O)NC(C)(C)C)c(F)cc3c(=O)c(C(=O)O)cn1c23	agar	-	-	MIC99	-	3.16 µM
CO[C@H]1/C=C/O[C@@]2(C)Oc3c(C)c(O)c4c(O)c(cc(OCC(=O)Nc5ccc(Cl)cc5)c4c3C2=O)NC(=O)/C(C)=C\C=C\[C@H](C)[C@H](O)[C@@H](C)[C@@H](O)[C@@H](C)[C@H](OC(C)=O)[C@@H]1C	-	-	-	MIC	H37Rv	0.15 µg/mL
O=C(c1ccc(Cc2ccc(C(=O)C(Cl)Cl)cc2)cc1)C(Cl)Cl	-	-	-	MIC	H37Rv	6.25 µg/mL
CN1CCN(CCCN2c3ccccc3Sc3ccc(C(F)(F)F)cc32)CC1	-	-	-	MBC	H37Rv	40 µg/mL
COc1cc2c(cc1OC)CN(c1c(F)c([N+](=O)[O-])c3c(=O)c(C(=O)O)cn4c3c1OCC4C)CC2	agar	-	-	MIC99	-	1.56 µM
CCOC(=O)Nc1cc(N(C)CC(=O)c2ccc(O)cc2)c([N+](=O)[O-])c(N)n1	-	12.5 µg/mL	-	inhibition	H37Rv	2%
CC1COc2c(N3CCN(C(=O)C4COc5ccccc5O4)CC3)c(F)c([N+](=O)[O-])c3c(=O)c(C(=O)O)cn1c23	agar	-	-	MIC99	-	2.81 µM
CCOC(=O)c1cc(CNc2cccc(OC)c2)on1	resazurin	-	-	MIC	H37Rv	12 µM
O=C(CCl)c1ccc(-c2ccc(C(=O)CCl)cc2)cc1	-	-	-	MIC	H37Rv	12.5 µg/mL
CCCCS(=O)(=O)Nc1ccc2[nH]c(C(=O)NC3CC(F)C3)c(C)c2c1	resazurin	-	-	MIC90	H37Rv	3.1 µM
CCOC(=O)CCC(NC(=O)c1ccc(N(CCC2CO2)S(=O)(=O)c2ccc(C)cc2)cc1)C(=O)OCC	BACTEC	12.5 µg/mL	-	inhibition	H37Rv	-2%
C[C@H]1COc2c(N3CCN(C(=O)C4COc5ccccc5O4)CC3)c(F)cc3c(=O)c(C(=O)O)cn1c23	agar	-	-	MIC99	-	12.27 µM
Cn1c2ccccc2c2nnc(N/N=C/c3ccc([N+](=O)[O-])o3)nc21	BACTEC	-	-	MIC bound	H37Rv	>12.5 µg/mL
CCOC(=O)c1cc(CNc2cccc(OC(F)(F)F)c2)on1	resazurin	-	-	MIC	H37Rv	2.4 µM
CC1(C)CCC[C@]2(C)[C@H]3C=C4C=C(O)C(=O)C=C4O[C@@]3(C)CC[C@@H]12	-	-	-	MIC	PAS-R	12.5 µg/mL
CCOC(=O)CCNC(CC(=O)OCC)[C@H]1O[C@@H]2OC(C)(C)O[C@@H]2[C@H]1OCc1ccccc1	-	-	-	MIC	H37Ra	>25 µg/mL
Cc1cc(=O)c(C(=O)O)c(C)n1-c1ccccc1	BACTEC	12.5 µg/mL	-	inhibition	H37Rv	1%
CCOC(=O)c1cc(CNc2cc(F)ccc2F)on1	resazurin	-	-	MIC	H37Rv	7.3 µM
NC[C@H]1OB2OCCOC3C=CC(c4cccs4)=C1C23	resazurin / fluorescence	-	-	MIC	H37Rv	>600 µM
Cc1c(C(=O)NCc2ccccc2)[nH]c2ccc(NS(=O)(=O)CCCCF)cc12	resazurin	-	-	MIC90	H37Rv	3.1 µM
Cc1cc2c(=O)n(-c3ccc(F)cc3)c(C)nc2c(C(=O)O)c1C	BACTEC	12.5 µg/mL	-	inhibition	H37Rv	9%
CCOC(=O)CC(N)[C@H]1O[C@@H]2OC(C)(C)O[C@@H]2[C@H]1OC	-	-	-	MIC	H37Rv	>100 µg/mL
CC(=O)Oc1ccccc1C(=O)Nc1ncc([N+](=O)[O-])s1	visual reading	-	-	MIC	Haarlem spoligotype 50	12 µg/mL
CCN(CC)CCNc1ccc(CO)c2oc3ccccc3c(=O)c12	BACTEC	-	-	MIC	H37Rv	≥12.5 µg/mL
CCOC(=O)Nc1cc(NCC(=O)c2ccc(Cl)cc2)c([N+](=O)[O-])c(N)n1	-	-	-	EC50	H37Rv	>12.5 µg/mL
CO[C@H]1/C=C/O[C@@]2(C)Oc3c(C)c(O)c4c(=O)c(c5oc6cc(N7CCN(CC(C)C)CC7)cc(=O)c6nc5c4c3=C2O)NC(=O)/C(C)=C\C=C\[C@H](C)[C@H](O)[C@@H](C)[C@@H](O)[C@@H](C)[C@H](OC(C)=O)[C@@H]1C	-	-	-	MBC	H37Rv	0.007 µg/mL
CCCCN(C(=O)COc1cc2c(O)c3c(O)c(C)c4c(c13)C(=O)[C@@](C)(O/C=C/[C@H](OC)[C@@H](C)[C@@H](OC(C)=O)[C@H](C)[C@H](O)[C@H](C)[C@@H](O)[C@@H](C)/C=C/C=C(/C)C(=O)N2)O4)N(CCC)CCC	-	-	-	MIC	H37Rv	0.09 µg/mL
O=C(c1ccc(Cc2ccc(C(=O)C(Br)Br)cc2)cc1)C(Br)Br	-	-	-	MIC	H37Rv	12.5 µg/mL
CCCN(CCC)N(CC)C(=O)COc1cc2c(O)c3c(O)c(C)c4c(c13)C(=O)[C@@](C)(O/C=C/[C@H](OC)[C@@H](C)[C@@H](OC(C)=O)[C@H](C)[C@H](O)[C@H](C)[C@@H](O)[C@@H](C)/C=C/C=C(/C)C(=O)N2)O4	-	-	-	MIC	H37Rv	0.18 µg/mL
C[C@H]1COc2c(N3CCSCC3)c(F)cc3c(=O)c(C(=O)O)cn1c23	agar	-	-	MIC99	MDR-TB	8.59 µM
CCOC(=O)Nc1cc(NCC(O)CN(C)c2ccc(Cl)cc2)c([N+](=O)[O-])c(N)n1	-	-	-	EC50	H37Rv	>12.5 µg/mL
CCCCS(=O)(=O)Nc1ccc2[nH]c(C(=O)N3CCOCC3)c(C)c2c1	resazurin	-	-	MIC90	H37Rv	12.5 µM
Cc1ccc(CNC(=S)c2ccccc2O)cc1	-	-	-	MIC	My 331/88	0.25 µg/mL
C[C@H]1COc2c(N3CCC(n4c(=O)[nH]c5cc(Cl)ccc54)CC3)c(F)c([N+](=O)[O-])c3c(=O)c(C(=O)O)cn1c23	agar	-	-	MIC99	-	0.34 µM
S=C(Nc1nc2ccccc2s1)SSC(=S)Nc1nc2ccccc2s1	BACTEC	128 µg/mL	-	inhibition	H37Rv	100%
Cc1ccc(O)c(C(=O)NCc2ccccc2)c1	-	-	-	MIC	My 331/88	62.5 µg/mL
CO[C@H]1/C=C/O[C@@]2(C)Oc3c(C)c(O)c4c(O)c(c(/C=N/N5CCN(C)CC5)c(O)c4c3C2=O)NC(=O)/C(C)=C\C=C\[C@H](C)[C@H](O)[C@@H](C)[C@@H](O)[C@@H](C)[C@H](OC(C)=O)[C@@H]1C	-	-	-	MIC	TN794	>32 µg/mL
CO[C@H]1/C=C/O[C@@]2(C)Oc3c(C)c(O)c4c(O)c(cc(OCC(=O)N(C)N(C)C)c4c3C2=O)NC(=O)/C(C)=C\C=C\[C@H](C)[C@H](O)[C@@H](C)[C@@H](O)[C@@H](C)[C@H](OC(C)=O)[C@@H]1C	-	-	-	MIC	H37Rv	0.18 µg/mL
O=C(CCl)c1ccc(Cc2ccc(C(=O)CCl)cc2)cc1	-	-	-	MIC	H37Rv	25 µg/mL
CC[C@H]1OC(=O)[C@H](C)[C@@H](O[C@H]2C[C@@](C)(OC)[C@@H](O)[C@H](C)O2)[C@H](C)[C@@H](O[C@@H]2O[C@H](C)C[C@H](N(C)C)[C@H]2O)[C@](C)(O)C[C@@H](C)C(=O)[C@H](C)[C@@H](O)[C@]1(C)O	-	-	-	MBC	H37Rv	>160 µg/mL
Cc1ccc(S(=O)(=O)/C=C/c2ccc([N+](=O)[O-])o2)cc1	resazurin	-	-	MIC	H37Rv	3.13 µg/mL
CCSN(SCC)C(=S)c1ncnc(N(C)O)c1[N+](=O)[O-]	-	-	-	MIC	-	7.78 µg/mL
CCCCS(=O)(=O)Nc1ccc2[nH]c(C(=O)NCCNC(=O)c3ccc([N+](=O)[O-])o3)c(C)c2c1	resazurin	-	-	MIC90	H37Rv	1.56 µM
O=C(O)CCC(=O)NC1C(NNC(=O)c2cccnc2)OC(CO)C(O)C1O	BACTEC	12.5 µg/mL	-	inhibition	H37Rv	17%
CCOC(=O)c1cc(CNc2ccc(OC(F)(F)F)cc2)on1	resazurin	-	-	MIC	H37Rv	0.8 µM
CCN(CC)C(=O)COc1cc2c(O)c3c(O)c(C)c4c(c13)C(=O)[C@@](C)(O/C=C/[C@H](OC)[C@@H](C)[C@@H](OC(C)=O)[C@H](C)[C@H](O)[C@H](C)[C@@H](O)[C@@H](C)/C=C/C=C(/C)C(=O)N2)O4	-	-	-	MIC	H37Rv	0.075 µg/mL
CC1CN(c2c(F)cc3c(=O)c(C(=O)O)cn4c3c2OC[C@@H]4C)CC(C)O1	agar	-	-	MIC99	MDR-TB	4.14 µM
CCCCS(=O)(=O)Nc1ccc2[nH]c(C(=O)OCC)c(C)c2c1	resazurin	-	I145T DG167-resistant	MIC90	DRM167 8x3	6.25 µM
BrCc1ccc2ccc3ccc(CBr)nc3c2n1	BACTEC	-	-	MIC bound	H37Rv	>12.5 µg/mL
CCOC(=O)Nc1cc2c(c(N)n1)N=C(c1ccccc1)C(C)(C)S2	-	-	-	EC50	H37Rv	<12.5 µg/mL
O=C(Cc1c[nH]c2ccccc12)N=Nc1c(O)[nH]c2ccccc12	BACTEC	-	-	MIC	H37Rv	≥12.5 µg/mL
Oc1ccccc1C(=S)NCc1cccc(Cl)c1	-	-	-	MIC	My 331/88	1 µg/mL
CCCCNC(CC(=O)OCC)[C@H]1O[C@@H]2OC(C)(C)O[C@@H]2[C@H]1OC	-	-	-	MIC	H37Rv	>50 µg/mL
O=C(NNC(=S)S)c1ccccc1	BACTEC	-	-	MIC	H37Rv	≥12.5 µg/mL
O=C(c1ccc(Sc2ccc(C(=O)C(Cl)Cl)cc2)cc1)C(Cl)Cl	-	-	-	MIC	H37Rv	1.56 µg/mL
Cc1ccc(N=Nc2c(O)c(C(=O)Nc3ccccc3)cc3ccccc23)c([N+](=O)[O-])c1	BACTEC	12.5 µg/mL	-	inhibition	H37Rv	7%
CCOC(=O)c1cc(CNc2cccc(C#N)c2)on1	low oxygen	-	-	MIC	H37Rv	128 µM
Cc1cc(-c2ccc(N=Nc3cc(S(=O)(=O)O)c4ccccc4c3N)c(C)c2)ccc1N=Nc1cc(S(=O)(=O)O)c2ccccc2c1N	BACTEC	6.25 µg/mL	-	inhibition	H37Rv	0%
Oc1ccccc1C(=S)NCc1ccccc1	-	-	-	MIC	My 331/88	0.5 µg/mL
CCOC(=O)CC(NCc1ccccc1)[C@H]1O[C@@H]2OC(C)(C)O[C@@H]2[C@H]1OC	-	-	-	MIC	H37Rv	>100 µg/mL
CC1(C)OCC2OC3(CO)OC(C)(C)OC3C2O1	BACTEC	-	-	MIC bound	H37Rv	>12.5 µg/mL
CCOC(=O)c1cc(-c2cccc(C)c2)on1	resazurin	-	-	MIC	H37Rv	1 µM
CC1(C)C=Cc2c(ccc3c(=O)c(-c4ccccc4)coc23)O1	BACTEC	-	-	MIC	H37Rv	≥12.5 µg/mL
O=C(c1cccc(-c2ccccc2)c1)C(Cl)Cl	-	-	-	MIC	H37Rv	6.25 µg/mL
O=c1cc(CO)[nH]nc1CO	BACTEC	12.5 µg/mL	-	inhibition	H37Rv	11%
CCOC(=O)Nc1cc2nc(C)c(-c3ccc(O)cc3)nc2c(N)n1	-	-	-	EC50	H37Rv	>12.5 µg/mL
CCOC(=O)c1cn(CC)c2c(ccc3cnccc32)c1=O	BACTEC	12.5 µg/mL	-	inhibition	H37Rv	3%
CCN(CC)N(CC)C(=O)COc1cc2c(O)c3c(O)c(C)c4c(c13)C(=O)[C@@](C)(O/C=C/[C@H](OC)[C@@H](C)[C@@H](OC(C)=O)[C@H](C)[C@H](O)[C@H](C)[C@@H](O)[C@@H](C)/C=C/C=C(/C)C(=O)N2)O4	-	-	-	MIC	H37Rv	0.15 µg/mL
CCOC(=O)/C=C1\COc2nc(N)[nH]c(=O)c2N1	BACTEC	12.5 µg/mL	-	inhibition	H37Rv	10%
CCCCS(=O)(=O)Nc1ccc2[nH]c(C(=O)NC3CCCc4ccccc43)c(C)c2c1	resazurin	-	-	MIC90	H37Rv	6.25 µM
COc1ccc(NC(=S)NNC(=O)c2ccncc2)cc1	-	-	-	MIC	INH resistant	10.31 µM
C=C(C(=O)OC)N1C(=O)C[C@@H](C)C1=O	BACTEC	-	-	MIC	H37Rv	≥12.5 µg/mL
O=C(NNC(=S)Nc1c(Cl)cccc1Cl)c1ccncc1	-	-	-	MIC	INH resistant	2.28 µM
CCCCS(=O)(=O)Nc1ccc2[nH]c(C(=O)N3CCCCCC3)c(C)c2c1	resazurin	-	-	MIC90	H37Rv	25 µM
O=C(NNC(=S)Nc1ccccc1C(F)(F)F)c1ccncc1	-	-	-	MIC	WT	0.58 µM
C[C@H]1COc2c(N3CCC4(CC3)OCCO4)c(F)cc3c(=O)c(C(=O)O)cn1c23	agar	-	-	MIC99	MDR-TB	0.09 µM
CCOC(=O)c1cc(-c2cc(C(F)(F)F)cc(C(F)(F)F)c2)on1	resazurin	-	-	MIC	H37Rv	0.7 µM

A second listing of 8 rows from above:

| structure | read by | dose | mutations | read-out | strain or isolate | value |
|---|---|---|---|---|---|---|
| CCOC(=O)CCNC(CC(=O)OCC)[C@H]1O[C@@H]2OC(C)(C)O[C@@H]2[C@H]1OCc1ccccc1 | - | - | - | MIC | H37Ra | >25 µg/mL |
| C[C@H]1COc2c(N3CCc4ccccc4C3C(=O)NC(C)(C)C)c(F)cc3c(=O)c(C(=O)O)cn1c23 | agar | - | - | MIC99 | - | 3.16 µM |
| Cc1ccc(O)c(C(=O)NCc2ccccc2)c1 | - | - | - | MIC | My 331/88 | 62.5 µg/mL |
| CCOC(=O)CC(N)[C@H]1O[C@@H]2OC(C)(C)O[C@@H]2[C@H]1OC | - | - | - | MIC | H37Rv | >100 µg/mL |
| CCOC(=O)c1cc(CNc2cccc(OC)c2)on1 | resazurin | - | - | MIC | H37Rv | 12 µM |
| CCOC(=O)c1cc(CNc2ccc(OC(F)(F)F)cc2)on1 | resazurin | - | - | MIC | H37Rv | 0.8 µM |
| BrCc1ccc2ccc3ccc(CBr)nc3c2n1 | BACTEC | - | - | MIC bound | H37Rv | >12.5 µg/mL |
| Cc1c(C(=O)NCc2ccccc2)[nH]c2ccc(NS(=O)(=O)CCCCF)cc12 | resazurin | - | - | MIC90 | H37Rv | 3.1 µM |